A mixed list of measured activities; the numbers were collected in NIAID ChemDB.

Shared fields: enzyme or target tests; organism: HIV-1; protein: Integrase; endpoint: inhibition

Inhibition is in % at the dose shown (toxicity tests: loss of growth or viability).

structure | dose | read by | value
COC(=O)/C(=C/c1cc(Cl)ccc1OCc1ccccc1)CNCc1cn([C@H]2C[C@H](n3cc(C)c(=O)[nH]c3=O)O[C@@H]2CO)nn1 | 10 µM | - | 9%
COC(=O)C(CCCCNC(=O)/C=C/c1ccc(O)c(O)c1)NC(=O)/C=C/c1ccc(O)c(O)c1 | 10 µM | 3′ processing | 55%
C#CCNCC(C(=O)OC)C(O)c1cc(Cl)ccc1OCc1ccccc1 | 10 µM | - | 51.7%
COc1ccc2[nH]c(=O)c(CN(C(=O)c3ccccc3)C3CCCC3)cc2c1 | 20 µM | strand transfer / absorbance | 39.9%
COC(=O)c1cc(O)c(O)c(O)c1 | 500 µM | 3′ processing | 62%
O=C(NCCCC[C@H](NC(=O)c1ccc(O)c(O)c1)C(=O)O)c1ccc(O)c(O)c1 | 10 µM | 3′ processing | 0%
COC(=O)C(CNCc1cn([C@H]2C[C@H](n3cc(C)c(=O)[nH]c3=O)O[C@@H]2CO)nn1)C(O)c1ccccc1OCc1ccccc1 | 10 µM | - | 3.3%
O=C(/C=C/c1ccc(O)c(O)c1)NCCCC(NC(=O)/C=C/c1ccc(O)c(O)c1)C(=O)O | 10 µM | 3′ processing | 90%
CC[C@H](C)[C@H](NC(=O)[C@@H](N)Cc1c[nH]c2ccccc12)C(=O)N[C@@H](CC(=O)O)C(=O)N[C@@H](CC(N)=O)C(=O)N[C@@H](CC(C)C)C(=O)N[C@@H](CC(=O)O)C(=O)O | 0.39 µM | - | 30%
COC(=O)C(CCNC(=O)/C=C/c1ccc(O)c(O)c1)NC(=O)/C=C/c1ccc(O)c(O)c1 | 10 µM | 3′ processing | 52%
Cc1nn(Cc2ccc3c(c2)c(=O)c(C(=O)O)cn3Cc2ccc([N+](=O)[O-])cc2)c(C)c1Br | 100 µg/mL | strand transfer | <50%
COc1ccc(S(=O)(=O)Nc2cc(Cl)c3ccc(/C=C/c4ccc(Br)cc4)nc3c2O)cc1 | 0.05 µM | strand transfer | 53.6%
O=c1[nH]c2ccccc2cc1CNC1CC1 | 20 µM | strand transfer / absorbance | 38.6%
O=C(NCC(NC(=O)c1ccc(O)c(O)c1)C(=O)O)c1ccc(O)c(O)c1 | 10 µM | 3′ processing | 2%
COC(=O)/C(=C/c1ccccc1OCc1ccccc1)CNCc1cn([C@H]2C[C@H](n3cc(C)c(=O)[nH]c3=O)O[C@@H]2CO)nn1 | 10 µM | - | 36%
CC(C)(C)c1ccc(CNC(=O)/C=C(\O)C(=O)O)cc1 | 70 µM | strand transfer | 35%
C#CCNC/C(=C\c1cc(Br)ccc1OCc1ccccc1)C(=O)OC | 10 µM | - | 72.9%
O=C(/C=C(\O)C(=O)O)NCc1ccc([N+](=O)[O-])cc1 | 70 µM | strand transfer | 80%
COc1cccc2cc(CN(C(=O)c3ccccc3)C3CC3)c(=O)[nH]c12 | 20 µM | strand transfer / absorbance | -17%
O=C(NC(CNC(=O)c1ccc(O)c(O)c1O)C(=O)O)c1cc(O)c(O)c(O)c1 | 10 µM | 3′ processing | 100%
O=C(c1ccccc1)N(Cc1cc2ccccc2[nH]c1=O)C1CC1 | 20 µM | strand transfer / absorbance | 39.5%
CCCCCCCCCCCCCCCC(=O)NC1C(COP(=O)(O)OC2CC(COP(=O)(O)OC3C(O)C(CO)OC3n3cnc4c(N)ncnc43)OC2n2cnc3c(N)ncnc32)OC(n2cnc3c(N)ncnc32)C1O | 1000 µM | - | 0%
COc1cccc(CNC(=O)/C=C(\O)C(=O)O)c1 | 70 µM | strand transfer | 65%
COc1ccc(/C=C/c2ccc3c(Cl)cc(NS(=O)(=O)c4ccc(Cl)cc4)c(O)c3n2)cc1 | 0.05 µM | strand transfer | 58.2%
CCCCOC(=O)C(CNCc1cn([C@H]2C[C@H](n3cc(C)c(=O)[nH]c3=O)O[C@@H]2CO)nn1)C(O)c1cc(Br)ccc1O | 10 µM | - | 57.8%
COC(=O)C(CCCCNC(=O)/C=C/c1cc(O)c(O)c(O)c1)NC(=O)/C=C/c1cc(O)c(O)c(O)c1 | 10 µM | 3′ processing | 100%
COc1ccc(S(=O)(=O)Nc2cc(Cl)c3ccc(/C=C/c4ccccc4)nc3c2O)cc1 | 0.05 µM | strand transfer | 72.9%
Cc1ccccc1CNC(=O)/C=C(\O)C(=O)O | 70 µM | strand transfer | 45%
O=c1[nH]c2ccccc2cc1CNC1CCCC1 | 20 µM | strand transfer / absorbance | 45.5%
CC(NC(=O)/C=C(\O)C(=O)O)c1ccc(F)cc1 | 70 µM | strand transfer | 40%
COc1ccc(/C=C/c2ccc3c(Cl)cc(NS(=O)(=O)c4ccc(OC)cc4)c(O)c3n2)cc1 | 0.05 µM | strand transfer | 11.8%
C#CCNCC(C(=O)OCCCC)C(O)c1cccc(OCC)c1O | 10 µM | - | 36.8%
C[C@H](c1ccccc1)N(Cc1ccccc1)C(=O)/C=C(\O)C(=O)O | 70 µM | strand transfer | 68%
COC(=O)C(CCCNC(=O)c1ccc(O)c(O)c1)NC(=O)c1ccc(O)c(O)c1 | 10 µM | 3′ processing | 0%
COc1cccc2cc(CN(C(=O)c3ccccc3)C3CCCC3)c(=O)[nH]c12 | 20 µM | strand transfer / absorbance | -11.8%

The last 5 rows once more:

structure,dose,read by,value
COc1ccc(/C=C/c2ccc3c(Cl)cc(NS(=O)(=O)c4ccc(OC)cc4)c(O)c3n2)cc1,0.05 µM,strand transfer,11.8%
C#CCNCC(C(=O)OCCCC)C(O)c1cccc(OCC)c1O,10 µM,-,36.8%
C[C@H](c1ccccc1)N(Cc1ccccc1)C(=O)/C=C(\O)C(=O)O,70 µM,strand transfer,68%
COC(=O)C(CCCNC(=O)c1ccc(O)c(O)c1)NC(=O)c1ccc(O)c(O)c1,10 µM,3′ processing,0%
COc1cccc2cc(CN(C(=O)c3ccccc3)C3CCCC3)c(=O)[nH]c12,20 µM,strand transfer / absorbance,-11.8%

Rows are shuffled and stem from different studies. Blank or dashed fields: not listed here.